Tested on: ceramide-activated protein kinase

cholera toxin [reference compound]
effect on kinase activity (in words): not stimulated

From patent US5451518A, “Purified human ceramide-activated protein kinase” (Sloan-Kettering Institute for Cancer Research, priority 1992, dated 1995)
